Results of unrelated studies side by side (data: NIAID ChemDB).

Common to all: enzyme or target tests; species: HIV-1; target: Reverse transcriptase; read by: nucleotide incorporation; read-out: IC50

Blank or dashed fields: not listed here.

compound | strain or isolate | changes | value
CC(C)=CCN1Cc2cccc3[nH]c(=S)n(c23)C[C@@H]1C | - | - | 6 µM
C[C@@H](CNC(=S)Nc1ccccn1)c1ccccc1 | - | - | 8.4 µM
C=C(CC[C@@H](C)[C@H]1CC[C@@]2(C)C3CC[C@H]4C(C)(C)[C@@H](OC(=O)/C=C/c5ccc(O)c(OC)c5)CC[C@@]45C[C@@]35CC[C@]12C)C(C)C | - | - | 1.9 µM
O=C(O[C@@H]1O[C@@H]2COC(=O)c3cc(O)c(O)c(O)c3-c3c(cc(O)c(O)c3O)C(=O)O[C@H]([C@H]1O)[C@@H]2O)c1cc(O)c(O)c(O)c1 | IIIB | - | 20 µM
COc1cc2c(c(OC)c1OC)-c1c(cc(OC)c(OC)c1OC)C[C@](C)(O)[C@@H](C)C2 | - | - | >100 µM
O=c1c(O[C@@H]2OC[C@@H](O)[C@H](O)[C@@H]2O)c(-c2ccc(O)c(O)c2)oc2cc(O)cc(O)c12 | IIIB | - | 1000 µM
CC(C)=CCC[C@H](C)C1CC[C@]2(C)C3=CC[C@H]4C(C)(C)[C@@H](O)CC[C@]4(C)C3CC[C@@]12C | - | - | 9.2 µM
CC(C)=CCN1Cc2cccc3[nH]c(=S)n(c23)C[C@@H]1C | HE | - | 2.5 µM
C[C@H](CNC(=S)Nc1nccs1)c1ccccc1 | - | - | >100 µM
CC1(C)[C@H](O)CC[C@]2(C)C3=CC[C@@]4(C)[C@@H]5C[C@](C)(COC(=O)c6ccccc6)CC[C@]5(C)CC[C@]4(C)C3=CC[C@@H]12 | - | - | 2.2 µM
CCc1cc(CCc2nc3ccccc3o2)c(=O)[nH]c1C | - | RT-K103N | 1.7 µM
COc1cc2c(c(OC)c1OC)-c1c(cc3c(c1OC)OCO3)C[C@H](C)[C@H](C)C2 | - | K103N | 90 µM
Cc1cccc(NC(=S)NC[C@@H](C)c2ccccc2)n1 | - | - | >100 µM
C=C(/C=C/c1ccc(O)c(OC)c1)O[C@H]1CCC23CC24CC[C@]2(C)[C@@H]([C@H](C)CCC=C(C)C)CC[C@@]2(C)[C@@H]4CC[C@H]3C1(C)C | - | - | 2.2 µM
O=c1c(O[C@@H]2O[C@H](CO)[C@@H](O)[C@H](O)[C@H]2O)c(-c2ccc(O)cc2)oc2cccc(O)c12 | IIIB | - | 125 µM
CCOC(=O)Cc1csc(NC(=S)NC[C@@H](C)c2ccccc2)n1 | - | - | >100 µM
CCN1c2ncccc2C(=O)N(C)c2ccc(-c3cccc(O)c3)nc21 | - | - | 0.07 µM
Cc1cccc2sc(NC(=S)N[C@@H](C)c3cccc4ccccc34)nc12 | - | - | >100 µM
CCN1c2ncccc2C(=O)N(C)c2ccc(-c3cccc(N)c3)nc21 | - | RT-Y181C | 0.18 µM
Cc1c(Sc2ccccc2)n(COCCO)c(=O)[nH]c1=O | - | - | 33 µM
C[C@H](CNC(=S)Nc1ccc(Br)cn1)c1ccccc1 | - | - | 1.9 µM
Cc1csc(NC(=S)N[C@H](C)c2cccc3ccccc23)n1 | - | - | 1.17 µM
CC1(C)[C@H](O)CC[C@]2(C)C3=C(C(=O)C[C@@H]12)[C@@]1(C)CC[C@@]2(C)CC[C@@](C)(CO)C[C@H]2[C@]1(C)CC3 | - | - | 33 µM
C[C@H](NC(=S)Nc1ccc(Br)cn1)c1cccc2ccccc12 | - | - | >100 µM
O=c1c(O[C@@H]2O[C@H](CO)[C@H](O)[C@H](O)[C@H]2O)c(-c2ccc(O)c(O)c2)oc2cc(O)cc(O)c12 | IIIB | - | 1000 µM
C=C(C)[C@@H]1CC[C@]2(C=O)CC[C@]3(C)[C@H](CC[C@@H]4[C@@]5(C)CCC(=O)C(C)(C)[C@@H]5CC[C@]43C)[C@@H]12 | - | - | 3.4 µM
C[C@@H](NC(=S)Nc1ccccn1)c1cccc2ccccc12 | - | - | 1.21 µM
Cc1c(Sc2ccccc2)n(COCCO)c(=O)[nH]c1=O | - | RT-Y181I | 2.8 µM
CN(c1ncccc1CO)C1CCN(C(=O)c2cc3cc(NS(C)(=O)=O)ccc3[nH]2)CC1 | IIIB | RT-P236L | >50 µM
CCc1cc(CCc2nc3ccccc3o2)c(=S)[nH]c1C | - | - | 0.027 µM

ICn: concentration for n% inhibition. Lines come from different laboratories, so protocols vary.